Earlier results on ten molecules are cited in paper PMC8611036, “An integrated method for optimized identification of effective natural inhibitors against SARS-CoV-2 3CLpro” (Scientific Reports, 2021).

In the data set the test system is SARS-CoV 3CLpro. The settings on record: cited from earlier work.
[1] abbreviates: SARS-CoV 3CLpro inhibitors (training set), from literature IC50, ref: per compound.
The mark [2] stands for this setting: SARS-CoV 3CLpro inhibitors (training set), literature values, ref: per compound.

Where two headings read alike, the source gives them in different places.

For `O=C1NN(c2ccc(Cl)c(Cl)c2)C(=O)/C1=C\c1ccc(-c2ccc(Br)cc2C(=O)O)o1` [CMP104], the pIC50 under setting [1] is listed as 5.037. Further, the IC50 under setting [2] is 9.19 µM.
Turning to `C=C(CCSc1ccccc1NC(=O)/C=C/c1ccccc1)OC` [CMP107], the pIC50 under setting [1] is given as 4.87. For the same molecule, the IC50 under setting [2] was 13.5 µM.
For `COc1ccc2c(c1)CCC1C2=NN(C(C)=O)C1c1cccc(I)c1` (centres unmarked) [CMP116], the pIC50 under setting [1] is 5.009. The half-maximal inhibitory concentration (IC50) under setting [2] was 9.8 µM.
As to `Cc1coc2c1C(=O)C(=O)c1c-2ccc2c(C)cccc12` [CMP127], the pIC50 under setting [1] is reported as 4.412. For the same molecule, the IC50 under setting [2] is 38.7 µM.
Turning to `COC(=O)[C@]1(C)CC[C@]2(C)CC[C@]3(C)C4=CC=C5C(=CC(=O)C(O)=C5C)[C@]4(C)CC[C@@]3(C)[C@@H]2C1` [CMP128], the IC50 was 5.5 µM and the pIC50 is reported as 5.26.
For `COc1cc(/C=C/C(=O)/C=C(O)/C=C/c2ccc(O)c(OC)c2)ccc1O` [CMP156], the negative-log IC50 (pIC50) under setting [1] is 4.629. The IC50 under setting [2] is 23.5 µM.
With `COc1ccc(-c2cc(=O)c3c(O)cc(O)cc3o2)cc1-c1c(O)cc(O)c2c(=O)cc(-c3ccc(O)cc3)oc12` [CMP157], under setting [1], the pIC50 was 4.141. In addition, the half-inhibitory concentration (IC50) under setting [2] is 72.3 µM.
Consider `CC(C)c1cc2c(cc1O)[C@@]1(C)CC[C@H](O)C(C)(C)[C@@H]1CC2` [CMP163], for which, under setting [1], the pIC50 is recorded as 3.632. Further, under setting [2], the IC50 is 233 µM.
In the case of `CCN(CC)c1ccc(C(=O)On2nnc3ccccc32)cc1` [CMP164], the pIC50 under setting [1] was 4.955. In addition, the IC50 under setting [2] was 11.1 µM.
For `CC(C)(C)NC(=O)C(c1cccnc1)N(C(=O)c1cnco1)c1ccc(C(C)(C)C)cc1` (centres unmarked) [CMP188], under setting [1], the negative-log IC50 (pIC50) is reported as 4.409. For the same molecule, the IC50 under setting [2] was 39 µM.
